A mixed list of measured activities; the numbers were collected in NIAID ChemDB.

Shared fields: whole-cell or culture tests

Lines come from different laboratories, so protocols vary.

structure | dose | species | conditions | endpoint | mutations | strain or isolate | method | value
CCC[C@@H]1C[C@@H](C(=O)N[C@@H]([C@H]2O[C@H](SC)[C@H](O)[C@@H](O)[C@H]2O)[C@@H](C)O)N(C)C1 |  | Mycobacterium avium |  | Mean MIC |  | ATCC 25291 |  | 112 µg/mL
Nc1ccc(S(=O)(=O)c2ccc(N)cc2)cc1 |  | Mycobacterium ulcerans |  | MBC |  | ATCC 35840 |  | 2 µg/mL
CCCNC(=O)Nc1ccc(S(=O)(=O)Nc2cc(C)on2)cc1 |  | Mycobacterium kansasii | 14 d | MIC100 |  | 6509/96 clinical isolate | broth dilution / absorbance | 500 µM
O=C(O)c1cn(C2CC2)c2cc(N3CCNCC3)c(F)cc2c1=O | 2000 µM | Mycobacterium luteus |  | zone |  | ATCC 10240 | agar diffusion / agar | 0 mm
CC[C@@H](CO)NCCN[C@@H](CC)CO |  | Mycobacterium avium paratuberculosis |  | MIC |  | K-10(PYUB180) |  | 20 µg/mL
NNC(=O)c1ccncc1 |  | Mycobacterium kansasii | 21 d | MIC100 |  | 6509/96 clinical isolate | broth dilution / absorbance | 8 µM
NNC(=O)c1ccncc1 |  | Mycobacterium aurum |  | EC50 |  | A+ |  | <0.03 µg/mL
Cc1nn(-c2ccccc2)c2c1C(c1cn(-c3ccccc3)nc1-c1ccc(Cl)cc1)C1=C(NC(C)(c3cc(O)cc(O)c3)NC1=O)O2 | 0.1 mg/mL | Mycobacterium smegmatis |  | zone |  | NCIM 5138 | agar diffusion / agar | 1.6 mm
CCN1CCN(c2cc3c(cc2F)c(=O)c(C(=O)O)cn3C2CC2)CC1 |  | Mycobacterium bovis |  | MIC |  | BCG-CX1 (D94N) |  | 10.5 µg/mL
CN[C@@H]1[C@H](O)[C@H](NC)[C@H]2O[C@@]3(O)C(=O)C[C@@H](C)O[C@H]3O[C@@H]2[C@H]1O |  | Mycobacterium fortuitum |  | MIC |  | ATCC 6841 |  | >64 µg/mL
CCOC(=O)N1CCN(c2ccc(C3CC(c4ccc([N+](=O)[O-])o4)=NO3)cc2)CC1 |  | Mycobacterium bovis |  | MIC |  | BCG |  | 0.003 µg/mL
O=C1C2=C(C(=O)c3ccccc31)C1(C(=O)Nc3ccc(Cl)cc31)N1CCCC21 | 50 µg/mL | Mycobacterium luteus |  | zone |  |  | agar diffusion | 10 mm
Cc1cc(NS(=O)(=O)c2ccc(NC(=O)N3CCC3)cc2)no1 |  | Mycobacterium kansasii | 7 d | MIC100 |  | 235/80 | broth dilution / absorbance | 4 µM
CCN1C(=O)C2(C3=C(C(=O)c4ccccc4C3=O)C3CCCN32)c2ccccc21 |  | Mycobacterium luteus |  | MIC |  |  | agar diffusion | 125 µg/mL
COc1cc(O)cc(/C=C/c2cc3ccccc3s2)c1 |  | Mycobacterium chelonae |  | MIC |  |  | broth dilution | 32 µg/mL
O=C(O)C(Cc1ccc(I)cc1)Nc1nc(-c2ccc(Cl)c(Cl)c2)cs1 |  | Mycobacterium luteus |  | MIC99 |  |  | broth dilution | 50 µg/mL
CCCCNC(=O)Nc1ccc(S(=O)(=O)Nc2cc(C)on2)cc1 |  | Mycobacterium kansasii | 14 d | MIC100 |  | 235/80 | broth dilution / absorbance | 250 µM
Cc1nn(-c2ccccc2)c2c1C(c1cn(-c3ccccc3)nc1-c1ccc(Cl)cc1)C1=C(NC(C)(c3cc(O)ccc3Cl)NC1=O)O2 | 0.1 mg/mL | Mycobacterium phlei |  | zone |  | NCIM 2240 | agar diffusion / agar | 2 mm
C=C[C@]1(C)C=C2[C@H](O)C[C@@H]3C(C)(CCC[C@@]3(C)CO)[C@H]2CC1 | 100 µg/mL | Mycobacterium avium |  | inhibition |  | ITM1812 |  | inactive
CO[C@@H]1C[C@@H](C[C@H]2CC[C@H](C)[C@H]([C@@H](C)C(=O)O)O2)O[C@]2(O[C@](C)([C@H]3CC[C@@](C)([C@@H]4O[C@@H]([C@H]5O[C@@](O)(CO)[C@H](C)C[C@@H]5C)C[C@@H]4C)O3)C[C@H]2C)[C@@H]1C |  | Mycobacterium aurum |  | MIC | T532 insertion |  | resazurin | 0.32 µg/mL
COc1ccc(-c2nn(-c3ccccc3)cc2C2C3=C(NC(C)(c4cc(O)c(I)cc4Cl)NC3=O)Oc3c2c(C)nn3-c2ccccc2)cc1 | 1 mg/mL | Mycobacterium phlei |  | zone |  | NCIM 2240 | agar diffusion / agar | 8.8 mm
NC[C@@H]1O[C@H](O[C@H]2[C@@H](O)[C@H](O[C@@H]3[C@@H](O)[C@H](N)C[C@H](N)[C@H]3O[C@H]3O[C@H](CO)[C@@H](O)[C@H](O)[C@H]3N)O[C@@H]2CO)[C@H](N)[C@@H](O)[C@@H]1O |  | Mycobacterium avium complex |  | MIC |  | 549/HIV+ |  | <1.56 µg/mL
CN[C@@H]1[C@@H](O)[C@@H](O[C@@H]2[C@@H](O)[C@H](O[C@H]3O[C@H](CN)CC[C@H]3N)[C@@H](N)C[C@H]2N)OC[C@]1(C)O |  | Mycobacterium fortuitum |  | MIC90 |  | 31 isolates |  | 16 µg/mL
NC[C@H]1O[C@H](O[C@H]2[C@H](O)[C@@H](O[C@H]3O[C@H](CO)[C@@H](O)[C@H](N)[C@H]3O)[C@H](N)C[C@@H]2N)[C@H](O)[C@@H](O)[C@@H]1O |  | Mycobacterium avium paratuberculosis |  | MIC |  | K-10(PYUB180) |  | ≥128 µg/mL
CC[C@H]1OC(=O)[C@H](C)[C@@H](O[C@H]2C[C@@](C)(OC)[C@@H](O)[C@H](C)O2)[C@H](C)[C@@H](O[C@@H]2O[C@H](C)C[C@H](N(C)C)[C@H]2O)[C@](C)(OC)C[C@@H](C)C(=O)[C@H](C)[C@@H](O)[C@]1(C)O |  | Mycobacterium avium |  | Mean MIC |  | ATCC 25291 |  | 2 µg/mL
COc1cc(Cc2cnc(N)nc2N)cc(OC)c1OCCCNc1ccc(S(=O)(=O)c2ccc(N)cc2)cc1 |  | Mycobacterium ulcerans |  | MBC |  | Isolate 8756 |  | 2 µg/mL
N/C(=N\N=C1CCCCCCCCCCC1)c1ccccn1 | 100 µM | Mycobacterium fortuitum |  | inhibition |  |  |  | 1.8%
Cc1nn(-c2ccccc2)c2c1C(c1cn(-c3ccccc3)nc1-c1ccc(F)cc1)C1=C(NC(C)(c3cc(O)c(I)cc3Cl)NC1=O)O2 | 0.1 mg/mL | Mycobacterium smegmatis |  | zone |  | NCIM 5138 | agar diffusion / agar | 5.6 mm
CCCCCCCCCCCCCCCC[N+](C)(C)CC |  | Mycobacterium smegmatis |  | MIC |  | mc2155 |  | 8 µg/mL
CC(C)(C)[C@@H](C(=O)N[C@@H](CCCCN)C(=O)O)N1NC(=O)C[C@H](NC(=O)[C@@H](N=C(N)N)c2cc(O)c(CO)c(O)c2)C1=O |  | Mycobacterium szulgai |  | MIC |  | mc2155 | visual reading | 120 µg/mL
CC(C)(C)c1ccc(/C=N/N=C(\N)c2ccccn2)cc1 | 100 µM | Mycobacterium fortuitum |  | inhibition |  |  |  | 1.1%
CC(=O)O[C@H]1C[C@@]2(C)[C@@H](C[C@@H](O)[C@H]3[C@@]4(C)CC[C@@H](O)[C@@H](C)[C@@H]4CC[C@@]32C)/C1=C(\CCC=C(C)C)C(=O)O |  | Mycobacterium avium |  | Mean MIC |  | ATCC 25291 |  | 11 µg/mL
O=C(O)c1cn(C2CC2)c2c(Cl)c(N3C[C@@H]4CCCN[C@@H]4C3)c(F)cc2c1=O |  | Mycobacterium avium paratuberculosis |  | MIC |  | K-10(PYUB180) |  | 0.008 µg/mL
CCC(C)(C)c1ccc(C=O)cc1 | 1000 µM | Mycobacterium fortuitum |  | inhibition |  |  |  | 8%
NC[C@H]1O[C@H](O[C@H]2[C@H](O)[C@@H](O[C@H]3O[C@H](CO)[C@@H](O)[C@H](N)[C@H]3O)[C@H](N)C[C@@H]2N)[C@H](O)[C@@H](O)[C@@H]1O |  | Mycobacterium avium intracellulare |  | MIC |  | N-551 (HIV-) |  | 4 µg/mL
O=[N+]([O-])c1cn2c(n1)OC[C@@H](OCc1ccc(OC(F)(F)F)cc1)C2 |  | Mycobacterium bovis |  | MIC |  | BCG |  | 0.05 µg/mL
CCn1cc(C(=O)O)c(=O)c2cc(F)c(N3CCN(C)CC3)cc21 | 10 µg/mL | Mycobacterium avium | pH 6.8 | inhibition |  |  |  | 88%
Cc1ccc2c(c1)C1(C(=O)N2)C2=C(C(=O)c3ccccc3C2=O)C2CCCN21 | 50 µg/mL | Mycobacterium luteus |  | zone |  |  | agar diffusion | 11 mm
N/N=C(\N)c1ccccn1 | 1000 µM | Mycobacterium fortuitum |  | inhibition |  |  |  | 12.1%
NC[C@@H]1O[C@H](O[C@H]2[C@@H](O)[C@H](O[C@@H]3[C@@H](O)[C@H](N)C[C@H](N)[C@H]3O[C@H]3O[C@H](CO)[C@@H](O)[C@H](O)[C@H]3N)O[C@@H]2CO)[C@H](N)[C@@H](O)[C@@H]1O |  | Mycobacterium avium |  | Mean MIC |  | ATCC 25291 |  | 13 µg/mL
O=C(c1ccc([N+](=O)[O-])o1)N1CCc2cc(N3CCN(Cc4ccccc4)CC3)ccc2C1 |  | Mycobacterium bovis |  | MIC |  | BCG |  | 0.006 µg/mL
CCCCCCCCCCNC(=O)Nc1ccc(S(=O)(=O)Nc2cc(C)on2)cc1 |  | Mycobacterium kansasii | 14 d | MIC100 |  | 6509/96 clinical isolate | broth dilution / absorbance | 125 µM
CN(C)c1ccc(O)c2c1C[C@H]1C[C@H]3[C@H](N(C)C)C(=O)C(C(N)=O)=C(O)[C@@]3(O)C(=O)C1=C2O |  | Mycobacterium avium |  | Mean MIC |  | ATCC 25291 |  | >28 µg/mL
CO[C@H]1/C=C/O[C@@]2(C)Oc3c(C)c(O)c4c(=O)c(c5oc6cc(N7CCN(CC(C)C)CC7)cc(=O)c6nc5c4c3=C2O)NC(=O)/C(C)=C\C=C\[C@H](C)[C@H](O)[C@@H](C)[C@@H](O)[C@@H](C)[C@H](OC(C)=O)[C@@H]1C |  | Mycobacterium avium |  | MBC |  | 3354 |  | >0.125 µg/mL
O=c1ccc2ccc(O)cc2o1 |  | Mycobacterium bovis |  | MIC |  | BCG | broth dilution | 62.5 µg/mL
COC[C@H]1OC(=O)c2coc3c2[C@@]1(C)C1=C(C3=O)C2CCC(=O)[C@@]2(C)C[C@H]1OC(C)=O | 0.5 µM | Mycobacterium bovis |  | inhibition |  | BCG |  | 0%
CC[C@@H](CO)NCCN[C@@H](CC)CO |  | Mycobacterium avium complex |  | MBC |  | 921-5 |  | 15 µg/mL
NCC[C@H](O)C(=O)N[C@@H]1C[C@H](N)[C@@H](O[C@H]2O[C@H](CN)[C@@H](O)[C@H](O)[C@H]2O)[C@H](O)[C@H]1O[C@H]1O[C@H](CO)[C@@H](O)[C@H](N)[C@H]1O |  | Mycobacterium avium complex |  | MIC |  | PLR-3/HIV+ |  | 1.25 µg/mL
CC(C)(C)[Si](C)(C)ONC(=O)c1ccccc1 | 2000 µM | Mycobacterium luteus |  | zone |  | ATCC 10240 | agar diffusion / agar | 0 mm
CO[C@H]1/C=C/O[C@@]2(C)Oc3c(C)c(O)c4c(O)c(c(/C=N/N5CCN(C)CC5)c(O)c4c3C2=O)NC(=O)/C(C)=C\C=C\[C@H](C)[C@H](O)[C@@H](C)[C@@H](O)[C@@H](C)[C@H](OC(C)=O)[C@@H]1C |  | Mycobacterium avium |  | MIC |  | Isolate 90-1799 |  | >30 µg/mL
O=C(NOCc1ccccc1)c1cc(Br)cc(C(F)(F)F)c1 |  | Mycobacterium vaccae |  | MIC |  | IMET 10670 | resazurin | 12.5 µM
CN(C)[C@@H]1C(=O)C(C(N)=O)=C(O)[C@@]2(O)C(=O)C3=C(O)c4c(O)cccc4[C@@](C)(O)[C@H]3C[C@@H]12 |  | Mycobacterium smegmatis |  | MIC |  | MC^2 552 (ciprofloxacin-resistant) |  | 2 µg/mL
CN1CC2=C(C(=O)c3ccccc3C2=O)C12C(=O)Nc1ccccc12 | 50 µg/mL | Mycobacterium luteus |  | zone |  |  | agar diffusion | 13 mm
O=C(NO)c1ccc([N+](=O)[O-])cc1 | 2000 µM | Mycobacterium luteus |  | zone |  | ATCC 10240 | agar diffusion / agar | 0 mm

Again, the opening 3 rows:

{"structure": "CCC[C@@H]1C[C@@H](C(=O)N[C@@H]([C@H]2O[C@H](SC)[C@H](O)[C@@H](O)[C@H]2O)[C@@H](C)O)N(C)C1", "species": "Mycobacterium avium", "endpoint": "Mean MIC", "strain or isolate": "ATCC 25291", "value": "112 µg/mL"}
{"structure": "Nc1ccc(S(=O)(=O)c2ccc(N)cc2)cc1", "species": "Mycobacterium ulcerans", "endpoint": "MBC", "strain or isolate": "ATCC 35840", "value": "2 µg/mL"}
{"structure": "CCCNC(=O)Nc1ccc(S(=O)(=O)Nc2cc(C)on2)cc1", "species": "Mycobacterium kansasii", "conditions": "14 d", "endpoint": "MIC100", "strain or isolate": "6509/96 clinical isolate", "method": "broth dilution / absorbance", "value": "500 µM"}

MIC50, MIC90 and the like: level of inhibition, or share of isolates inhibited. Percent inhibition refers to the dose given; in toxicity tests it is the harm to the cells. ECn: concentration that inhibits the pathogen or its effect by n%. An empty or dashed field is not shown. Zone: diameter of growth inhibition. For "inactive" no cut-off is given.